US8937167B2 (Washington University, priority 2009, dated 2015)
Where two headings read alike, the source gives them in different places.

Protein sequences, listed by entry. Tags and fused reporters are not part of them. Residues count along the entry.
UniProt Q1R2J4, 20-300 limits assumed: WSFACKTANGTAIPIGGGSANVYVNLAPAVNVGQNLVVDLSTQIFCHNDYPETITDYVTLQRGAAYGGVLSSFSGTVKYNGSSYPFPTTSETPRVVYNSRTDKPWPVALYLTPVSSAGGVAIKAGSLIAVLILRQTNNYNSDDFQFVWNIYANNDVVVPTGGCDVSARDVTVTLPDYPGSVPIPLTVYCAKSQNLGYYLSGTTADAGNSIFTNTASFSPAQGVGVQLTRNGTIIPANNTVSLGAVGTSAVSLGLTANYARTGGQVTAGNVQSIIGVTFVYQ

Molecular target: FimH (Escherichia coli, UniProt Q1R2J4)
[1] = read-out: HA 50% titer, Table 13, Example 6 numbering
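Note: hemagglutination inhibition of guinea pig erythrocytes agglutinated by type 1 piliated uropathogenic E. coli via FimH mannose binding, quantified through serial dilutions of compound.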

In the case of `COC(=O)c1ccc(-c2ccc(O[C@H]3O[C@H](CO)[C@@H](O)[C@H](O)[C@@H]3O)cc2)cc1`, the EC90 (read-out: HA 50% titer EC90, Table 11, Example 6 numbering) is reported as 4 µM and the EC50 [1] is reported as 4 µM.
With `COC(=O)c1cc(O[C@H]2O[C@H](CO)[C@@H](O)[C@H](O)[C@@H]2O)cc(C(=O)OC)c1` the EC50 (read-out: HA 50% Titer, Table 10, Example 6 numbering) was 2 µM, the EC50 [1] was 2 µM and the “fold enhancement in HA potency” value (relative to 3j) was 3 fold.
